These results are taken from patent US7485619B2, “Antimicrobial agent” (priority 2005, dated 2009).

No end group written: not given here.

The data set is described as follows: Antigenic activity of mucocidin peptides.
In the case of “ATSSVSSRVLNRSLQVKVVKITN [Peptide 23-mer-C]”, the antigenic activity entry is reported as “no antigenic activity”.
Take “EYIYNSACSVLSATSSVSSRVLNRSLQVKVVKITN [Peptide 35-mer]”: the antigenic activity entry was “showed antigenic activity”.
Take “isolated native salivary mucocidin: glycosylated native mucocidin isolated from human parotid saliva by ion exchange and Superose 12 chromatography (MHDFWVLWVLLEYIYNSACSVLSATSSVSSRVLNRSLQVKVVKITN)”: the antigenic activity entry is “showed antigenic activity”.
